Test results: patent US7700727B2, “Compositions and kits for detecting pathogen infection” (Biokit, S.A., priority 2003, dated 2010)

System: anti-Tp antibodies in human syphilis sera
Assay: Syphilis hemagglutination assay with GST-Tp17 reagent supplemented with lysozyme
Details: for effect of added lysozyme on intensity of hemagglutination: 3 μg lysozyme/1 μg Tp17, 4 borderline human syphilitic sera; for samples showing an improvement in sensitivity of the assay: out of 10 samples tested, 594 units of human lysozyme/μg GST-Tp17

chicken lysozyme: purified chicken egg white lysozyme (L-6876, Sigma-Aldrich; P00698)
effect of added lysozyme on intensity of hemagglutination: did not enhance the response

human lysozyme: human lysozyme (NP_000230); breast milk-derived in Example 8, recombinant (Ventria) in Examples 10 and 16
effect of added lysozyme on intensity of hemagglutination: improves the intensity of hemagglutination

natural human breast milk lysozyme: purified natural human breast milk lysozyme (L-6394; Sigma-Aldrich)
samples showing an improvement in sensitivity of the assay: 6

recombinant human transgenic rice lysozyme: purified recombinant human lysozyme from transgenic rice (159-53LZ-90P; Ventria Bioscience)
false positive results (200 syphilis-negative blood bank samples): does not give false positives results | samples negative without lysozyme that were positive when lysozyme was added (of 19 samples that tested negative, among 34 real positive samples): 14 | samples showing an improvement in sensitivity of the assay: 6
